Anti-infective test results gathered from many reports (values: NIAID ChemDB through PubChem).

Shared fields: growth or infection tests

Percent inhibition refers to the dose given; in toxicity tests it is the harm to the cells.

Nc1nccc2c1ncn2[C@@H]1C[C@H](CO)[C@@H](O)[C@H]1O ; organism: Vesicular stomatitis virus ; read by: cytopathic effect ; cells: PRK ; read-out: EC50 ; value: 0.2 µg/mL
O=C(Nc1ccc(C(F)(F)F)cc1)c1cc(Cl)ccc1OP(=O)(c1ccccc1)c1ccccc1 ; organism: Mycobacterium kansasii ; strain or isolate: My 6509/96 ; conditions: 14 d ; read-out: MIC ; value: 4 µM
CC(=O)N1CCN(c2ccc(OC[C@H]3CO[C@](Cn4ccnc4)(c4ccc(Cl)cc4Cl)O3)cc2)CC1 ; organism: Candida albicans ; strain or isolate: Isogenic isolate 2 MDR1 (12X) ; read-out: MIC ; value: 0.004 µg/mL
C[C@H]1NCc2cc(-c3ccc4c(=O)c(C(=O)O)cn(C5CC5)c4c3OC(F)F)ccc21 ; organism: Haemophilus influenzae ; strain or isolate: 38 strains (ampicillin-susceptible) ; read-out: MIC50 ; value: ≤0.004 µg/mL
Nc1nccc2c1ncn2[C@@H]1C[C@H](CO)[C@@H](O)[C@H]1O ; organism: Vesicular stomatitis virus ; read by: cytopathic effect ; cells: BSC-1A ; read-out: EC50 ; value: >400 µg/mL
Cc1cn([C@@H]2O[C@H](CO)[C@@H](O)[C@@H]2O)c(=O)[nH]c1=O ; organism: Varicella zoster virus ; strain or isolate: YS (TK+) ; read by: plaque count ; cells: HEL ; read-out: EC50 ; value: 0.29 µM
O=C(Nc1ccc(Cl)cc1)c1cc(Cl)ccc1OP(=O)(Oc1ccccc1)c1ccccc1 ; organism: Mycobacterium kansasii ; strain or isolate: My 235/80 ; conditions: 21 d ; read-out: MIC ; value: 8 µM
C[C@H]1COc2c(N3CCN(C)CC3)c(F)cc3c(=O)c(C(=O)O)cn1c23 ; organism: Streptococcus pneumoniae ; strain or isolate: Clinical isolate RT1 ; read-out: MIC ; value: >8 µg/mL
CC[C@@]1(OC(=O)CN)C(=O)OCc2c1cc1n(c2=O)Cc2cc3c(N)c4c(cc3nc2-1)OCO4 ; organism: Saccharomyces cerevisiae ; strain or isolate: JHY6-1C ; read-out: MIC ; value: 6.25 µg/mL
CC(=O)NC[C@H]1CN(c2ccc(N3CCOCC3)c(F)c2)C(=O)O1 ; organism: Staphylococcus aureus ; strain or isolate: 24 strains (ofloxacin-susceptible) ; read-out: MIC50 ; value: 2 µg/mL
NC(=O)c1ncn([C@@H]2O[C@H](CO)[C@@H](O)[C@H]2O)n1 ; organism: Dengue virus ; strain or isolate: TYPE 2 ; read by: cytopathic effect ; cells: VERO ; read-out: EC50 ; value: >80 µg/mL
CCCCCCCCCCCCCCCCCCCCCCOCC(C)(COCCCCCCCCCCCCCCCCCCCCCC)CO[C@]1(C(=O)O)C[C@H](OS(=O)(=O)O)[C@@H](NC(C)=O)[C@H]([C@H](OS(=O)(=O)O)[C@@H](COS(=O)(=O)O)OS(=O)(=O)O)O1 ; organism: Respiratory syncytial virus ; strain or isolate: FM-58-8 ; read by: plaque count ; cells: HEP-2 ; read-out: EC50 ; value: 0.15 µM
C#CC[C@@H](C(=O)N[C@H](/C=C/C(=O)OCC)C[C@@H]1CCNC1=O)n1cccc(NC(=O)c2cc(C)on2)c1=O ; dose: 0.067 µM ; organism: Rhinovirus ; strain or isolate: Serotype Hanks ; read by: cytopathic effect / XTT ; cells: H1-HELA ; read-out: inhibition ; value: 90%
CO[C@@H]1[C@@H](O[C@@H]2O[C@H](C)[C@@H](O[C@H]3C[C@@](C)(O)[C@@H](O)[C@H](C)O3)[C@H](N(C)C)[C@H]2O)[C@@H](CC=O)C[C@@H](C)[C@@H](O[C@H]2CC[C@H](N(C)C)[C@H](C)O2)/C=C/C=C/C[C@@H](C)OC(=O)C[C@H]1O ; dose: 4 µg/mL ; organism: Toxoplasma gondii ; read-out: inhibition ; value: 90%
COc1cc(Cc2cnc(N)nc2N)cc(OC)c1OCCCNc1ccc(S(=O)(=O)c2ccc(N)cc2)cc1 ; organism: Mycobacterium ulcerans ; strain or isolate: Isolate 842 ; read-out: MBC ; value: 4 µg/mL
CN(C)c1ccc(O)c2c1C[C@H]1C[C@H]3[C@H](N(C)C)C(=O)C(C(N)=O)=C(O)[C@@]3(O)C(=O)C1=C2O ; organism: Staphylococcus aureus ; strain or isolate: 25 strains (methicillin-susceptible) ; read-out: MIC50 ; value: 0.12 µg/mL
CC[C@@]1(OC(=O)CN)C(=O)OCc2c1cc1n(c2=O)Cc2cc3cc4c(cc3nc2-1)OCO4 ; organism: Saccharomyces cerevisiae ; strain or isolate: Mutant ΔERG6 ΔTOP1 ; read-out: MIC ; value: >100 µg/mL
O=C1c2cc(Cl)ccc2OP(=O)(c2ccccc2)N1c1ccc(Cl)cc1 ; organism: Mycobacterium kansasii ; strain or isolate: My 235/80 ; conditions: 21 d ; read-out: MIC ; value: 16 µM
Nc1ccn([C@H]2CC[C@@H](CO)O2)c(=O)n1 ; organism: Adenovirus ; strain or isolate: TYPE 2 ; read by: PCR ; cells: HEL ; read-out: EC50 ; value: 3.3 µM
CCO/N=C/c1ccc(OCCC2CCN(c3ccc(C)nn3)CC2)cc1 ; organism: Rhinovirus ; strain or isolate: 181-CV16 (ICAM-1 receptor group 12) ; read by: neutral red ; cells: KB ; read-out: EC50 ; value: 0.027 µM
Nc1ncnc2c1ncn2CCOCP(=O)(O)O ; dose: 0.1 µM ; organism: Epstein-Barr virus ; cells: P3HR-1 ; read-out: inhibition ; value: 4%
Nc1ncc2c(ncn2COC(CO)CO)n1 ; organism: Varicella zoster virus ; strain or isolate: 13 isolates ; read by: plaque count ; cells: HEL ; read-out: EC50 ; value: 0.11 µM
COc1cc2oc(=O)ccc2cc1CC(O)C(C)(C)O ; organism: Klebsiella pneumoniae ; strain or isolate: ESBL-3967 ; read-out: MIC ; value: 62.5 µg/mL
Nc1ncnc2c1ncn2[C@@H]1O[C@H](CO)[C@@H](O)[C@@H]1O ; organism: Varicella zoster virus ; strain or isolate: OKA (TK+) ; read by: plaque count ; cells: HEL ; read-out: EC50 ; value: 8.6 µM
Nc1cc(OC[C@@H](CO)OCP(=O)(O)O)nc(N)n1 ; organism: Adenovirus ; strain or isolate: TYPE 2 ; read by: cytopathic effect ; cells: HEL ; read-out: EC50 ; value: 10 µM
C[C@H](Cc1ccc(O)c(O)c1)[C@@H](C)Cc1ccc(O)c(O)c1 ; organism: Candida lusitaniae ; strain or isolate: CCC 131-2000 ; read by: broth dilution ; read-out: MIC50 ; value: 250 µg/mL
Nc1nc2c(ncn2[C@@H]2O[C@H](CO)[C@H]2CO)c(=O)[nH]1 ; organism: Varicella zoster virus ; strain or isolate: OKA (TK+) ; read by: plaque count ; cells: HEL ; read-out: EC50 ; value: 0.23 µM
Nc1ccn([C@@H]2CS[C@H](CO)O2)c(=O)n1 ; organism: Adenovirus ; strain or isolate: TYPE 2 ; read by: PCR ; cells: HEL ; read-out: EC50 ; value: >100 µM
O=C(Nc1ccc(Cl)c(Cl)c1)c1cc(Cl)ccc1OP(=O)(Oc1ccccc1)Oc1ccccc1 ; organism: Mycobacterium kansasii ; strain or isolate: My 6509/96 ; conditions: 21 d ; read-out: MIC ; value: 8 µM
Nc1ccn(C[C@@H](CO)OCP(=O)(O)O)c(=O)n1 ; organism: Adenovirus ; strain or isolate: WT 300 (TYPE 5) ; read by: cytopathic effect ; read-out: EC50 ; value: 4 µg/mL
O=c1[nH]c(=O)n([C@H]2C[C@H](O)[C@@H](CO)O2)cc1/C=C/Br ; dose: 1 µM ; organism: Epstein-Barr virus ; cells: P3HR-1 ; read-out: inhibition ; value: 6%
CC[C@@]1(O)C(=O)OCc2c1cc1n(c2=O)Cc2cc3c(CN(C)C)c(O)ccc3nc2-1 ; organism: Saccharomyces cerevisiae ; strain or isolate: JHY6-1C ; read-out: MIC ; value: >1000 µg/mL
O=C(O)P(=O)(O)O ; organism: Adenovirus ; strain or isolate: TYPE 2 ; read by: PCR ; cells: HEL ; read-out: EC50 ; value: >500 µM
NC(=O)c1ncn([C@@H]2O[C@H](CO)[C@@H](O)[C@H]2O)n1 ; organism: Measles virus ; strain or isolate: Chicago ; read by: neutral red ; cells: CV-1 ; read-out: EC50 ; value: 20 µg/mL
CC[C@@]1(O)C(=O)OCc2c1cc1n(c2=O)Cc2cc3cc(O)ccc3nc2-1 ; organism: Saccharomyces cerevisiae ; strain or isolate: Mutant ΔERG6 ; read-out: MIC ; value: >100 µg/mL
COc1cc(Cc2cnc(N)nc2N)cc(OC)c1OC ; organism: Mycobacterium ulcerans ; strain or isolate: Isolate 94-539 ; read-out: MIC ; value: >16 µg/mL
O=C(Nc1ccc(C(F)(F)F)cc1)c1cc(Br)ccc1OP(=O)(OCc1ccccc1)OCc1ccccc1 ; organism: Mycobacterium kansasii ; strain or isolate: My 235/80 ; conditions: 14 d ; read-out: MIC ; value: 16 µM
Nc1nc2c(ncn2COCOCP(=O)(O)O)c(=O)[nH]1 ; organism: Parainfluenza virus ; strain or isolate: C243 (TYPE 3) ; read by: cytopathic effect ; read-out: EC50 ; value: 14 µg/mL
O=C(Nc1ccc(Cl)c(Cl)c1)c1cc(Cl)ccc1OP(=O)(c1ccccc1)c1ccccc1 ; organism: Mycobacterium kansasii ; strain or isolate: My 235/80 ; conditions: 7 d ; read-out: MIC ; value: 4 µM
NC1CCN(c2c(F)cc3c(=O)c(C(=O)O)cn(C4CC4)c3c2Cl)C1 ; organism: Enterococcus faecium ; strain or isolate: 10 strains ; read-out: MIC90 ; value: 0.5 µg/mL
COc1c(N2C[C@@H]3CCCN[C@@H]3C2)c(F)cc2c(=O)c(C(=O)O)cn(C3CC3)c12 ; organism: Haemophilus influenzae ; strain or isolate: 38 strains (ampicillin-susceptible) ; read-out: MIC90 ; value: 0.03 µg/mL
CC[C@@]1(O)C(=O)OCc2c1cc1n(c2=O)Cc2c-1nc1cc3c(cc1c2CCl)OCO3 ; organism: Saccharomyces cerevisiae ; strain or isolate: Mutant ΔERG6 ; read-out: MIC ; value: 3.12 µg/mL
Nc1ncnc2c1ncn2[C@H]1C=C[C@H](O)[C@@H]1O ; organism: Measles virus ; read by: neutral red ; cells: CV-1 ; read-out: EC50 ; value: <0.1 µg/mL
O=C1N(Cc2ccc(CO)cc2)[C@H](Cc2ccccc2)[C@H](O)[C@@H](O)[C@@H](Cc2ccccc2)N1Cc1ccc(CO)cc1 ; dose: 0.14 µM ; organism: HIV-1 ; strain or isolate: B clinical isolate ; read by: p24 ; cells: PBMC ; read-out: inhibition ; value: 90%
Nc1ccn(C[C@H]2COP(=O)(O)CO2)c(=O)n1 ; organism: Varicella zoster virus ; strain or isolate: YS (TK+) ; read by: plaque count ; cells: HEL ; read-out: EC50 ; value: 1.06 µM
CCc1c2c(nc3ccc(OC(=O)N4CCC(N5CCCCC5)CC4)cc13)-c1cc3c(c(=O)n1C2)COC(=O)[C@]3(O)CC ; organism: Saccharomyces cerevisiae ; strain or isolate: Mutant ΔERG6 ; read-out: MIC ; value: 500 µg/mL
O=C(Nc1ccccc1)c1ccccc1OP(=O)(OCc1ccccc1)OCc1ccccc1 ; organism: Mycobacterium kansasii ; strain or isolate: My 6509/96 ; conditions: 7 d ; read-out: MIC ; value: 125 µM
Nc1ncnc2c1ncn2C[C@H](CO)OCP(=O)(O)O ; organism: Adenovirus ; strain or isolate: adenoid 75 (TYPE 5) ; read by: virus yield ; read-out: EC90 ; value: 0.1 µg/mL
O=C(Nc1ccccc1)c1ccccc1OP(=O)(Oc1ccccc1)Oc1ccccc1 ; organism: Mycobacterium kansasii ; strain or isolate: My 235/80 ; conditions: 14 d ; read-out: MIC ; value: 500 µM
CN(C)[C@@H]1C(=O)C(C(N)=O)=C(O)[C@@]2(O)C(=O)C3=C(O)c4c(O)c(NC(=O)CNc5ccccc5)cc(F)c4C[C@H]3C[C@@H]12 ; organism: Enterococcus faecalis ; strain or isolate: 103-29212 ; read by: agar diffusion ; read-out: EC50 ; value: 2 µg/mL

For reference, 5 entries again:

compound | dose | organism | strain or isolate | read by | cells | conditions | read-out | value
Nc1nccc2c1ncn2[C@@H]1C[C@H](CO)[C@@H](O)[C@H]1O | - | Vesicular stomatitis virus | - | cytopathic effect | PRK | - | EC50 | 0.2 µg/mL
CN(C)c1ccc(O)c2c1C[C@H]1C[C@H]3[C@H](N(C)C)C(=O)C(C(N)=O)=C(O)[C@@]3(O)C(=O)C1=C2O | - | Staphylococcus aureus | 25 strains (methicillin-susceptible) | - | - | - | MIC50 | 0.12 µg/mL
COc1cc2oc(=O)ccc2cc1CC(O)C(C)(C)O | - | Klebsiella pneumoniae | ESBL-3967 | - | - | - | MIC | 62.5 µg/mL
Nc1ncnc2c1ncn2[C@H]1C=C[C@H](O)[C@@H]1O | - | Measles virus | - | neutral red | CV-1 | - | EC50 | <0.1 µg/mL
C[C@H]1NCc2cc(-c3ccc4c(=O)c(C(=O)O)cn(C5CC5)c4c3OC(F)F)ccc21 | - | Haemophilus influenzae | 38 strains (ampicillin-susceptible) | - | - | - | MIC50 | ≤0.004 µg/mL

ECn: concentration that inhibits the pathogen or its effect by n%. An empty or dashed field is not shown. Lines come from different laboratories, so protocols vary. MIC50, MIC90 and the like: level of inhibition, or share of isolates inhibited.